Measurements published in BindingDB's records for 27283786 (2016).

Chains of the proteins cited; added tags and fusions are not shown. Residues count along the entry.
UniProt B5Z8I0, 22-247 limits assumed: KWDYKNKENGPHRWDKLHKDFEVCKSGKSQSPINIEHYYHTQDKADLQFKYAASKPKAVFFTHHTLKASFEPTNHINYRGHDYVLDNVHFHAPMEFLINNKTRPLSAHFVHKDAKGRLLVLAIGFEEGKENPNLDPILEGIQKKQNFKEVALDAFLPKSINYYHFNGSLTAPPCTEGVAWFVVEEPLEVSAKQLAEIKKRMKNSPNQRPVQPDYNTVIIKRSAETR
UniProt A0A0H7HLM5, 1-183: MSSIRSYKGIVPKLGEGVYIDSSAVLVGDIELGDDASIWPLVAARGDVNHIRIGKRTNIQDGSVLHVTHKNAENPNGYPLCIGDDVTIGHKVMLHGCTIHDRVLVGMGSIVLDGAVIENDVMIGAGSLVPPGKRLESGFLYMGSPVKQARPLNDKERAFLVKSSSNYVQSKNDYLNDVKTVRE
UniProt Q9KMP6, 21-239 limits assumed: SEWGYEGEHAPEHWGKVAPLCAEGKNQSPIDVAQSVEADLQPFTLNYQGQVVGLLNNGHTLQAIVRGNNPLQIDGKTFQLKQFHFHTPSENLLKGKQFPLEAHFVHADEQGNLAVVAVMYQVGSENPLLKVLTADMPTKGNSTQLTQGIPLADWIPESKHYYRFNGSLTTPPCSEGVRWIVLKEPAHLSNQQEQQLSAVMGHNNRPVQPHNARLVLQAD
UniProt A0A086SLX8, 1-222: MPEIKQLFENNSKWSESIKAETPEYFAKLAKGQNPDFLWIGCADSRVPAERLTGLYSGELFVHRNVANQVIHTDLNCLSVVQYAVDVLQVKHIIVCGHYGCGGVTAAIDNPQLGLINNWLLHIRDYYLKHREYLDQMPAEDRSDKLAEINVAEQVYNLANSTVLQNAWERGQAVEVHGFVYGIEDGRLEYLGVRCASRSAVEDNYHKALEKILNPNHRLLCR

Legend:
Details in all cases: pH 7.5
[1] = molecular target: Alpha-carbonic anhydrase (Helicobacter pylori (strain G27), UniProt B5Z8I0); assay: ASSAY_NAME: ChEMBL_158306 (CHEMBL763191) DESCRIPTION: Inhibition of Vibrio cholerae alpha carbonic anhydrase preincubated for 15 mins by stopped-flow CO2 hydrase assay
[2] = molecular target: Gamma carbonic anhydrase family protein (Vibrio cholerae, UniProt A0A0H7HLM5)
[3] = molecular target: Carbonic anhydrase (Vibrio cholerae serotype O1 (strain ATCC 39315 / El Tor Inaba N16961), UniProt Q9KMP6); assay: ASSAY_NAME: ChEMBL_158307 (CHEMBL763192) DESCRIPTION: Inhibition of Flaveria bidentis carbonic anhydrase 1 preincubated for 15 mins by stopped-flow CO2 hydrase assay
[4] = molecular target: Carbonic anhydrase (Vibrio cholerae, UniProt A0A086SLX8); assay: ASSAY_NAME: ChEMBL_158311 (CHEMBL763368) DESCRIPTION: Inhibition of Vibrio cholerae carbonic anhydrase beta preincubated for 15 mins by stopped-flow CO2 hydrase assay

Structure (SMILES)	Ki [1] [µM]	Ki [2] [µM]	Ki [3] [µM]	Ki [4] [µM]
N#CO	600	2600	–	–
O=[As](O)(O)c1ccccc1	–	91	–	–
[O]=[V]([OH])([OH])[O][V](=[O])([OH])[OH]	270	8300	840	7900
